Data on one compound can be found in PubChem BioAssay AID540268 (Broad Institute, 2011).

This assay deals with Plasmodium falciparum 3D7 growth, plate reader. Description: growth inhibition of yeast carrying parasite Hsp90, dose response, anti-malarial Hsp90 inhibitor project, ATP luminescence, 48 h, cherry-picked samples (AID 540268).

As a reminder, the AC50 is the midpoint of the concentration-response curve, whichever way the signal moves.

Regarding `CC1=CC2OC3CC4OC(=O)C=CC=CC(=O)OCCC(C)C(O)C(=O)OCC2(CC1)C4(C)C31CO1` (stereo unspecified), the concentration at half-maximal activity (AC50) is 221 nM.
